# Measured values reported in US11058716B2 (priority 2015, dated 2021).
# By UniProt entry, the sequences of proteins in these tests, tags left out.
# UniProt P54292, whole entry: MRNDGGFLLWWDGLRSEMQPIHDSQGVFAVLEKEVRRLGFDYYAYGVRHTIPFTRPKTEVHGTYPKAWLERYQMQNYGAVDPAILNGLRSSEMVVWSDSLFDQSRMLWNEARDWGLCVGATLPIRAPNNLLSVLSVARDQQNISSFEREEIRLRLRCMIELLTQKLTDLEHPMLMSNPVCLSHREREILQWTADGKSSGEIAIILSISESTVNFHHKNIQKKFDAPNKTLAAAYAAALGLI
# UniProt P25084, whole entry: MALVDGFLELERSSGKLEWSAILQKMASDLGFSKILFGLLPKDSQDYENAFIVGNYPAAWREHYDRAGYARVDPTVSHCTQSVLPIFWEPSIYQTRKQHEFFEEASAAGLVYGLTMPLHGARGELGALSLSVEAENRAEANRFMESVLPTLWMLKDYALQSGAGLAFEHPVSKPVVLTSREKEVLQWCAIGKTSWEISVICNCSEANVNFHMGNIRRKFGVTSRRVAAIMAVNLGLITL
# UniProt Q9I2S3, whole entry: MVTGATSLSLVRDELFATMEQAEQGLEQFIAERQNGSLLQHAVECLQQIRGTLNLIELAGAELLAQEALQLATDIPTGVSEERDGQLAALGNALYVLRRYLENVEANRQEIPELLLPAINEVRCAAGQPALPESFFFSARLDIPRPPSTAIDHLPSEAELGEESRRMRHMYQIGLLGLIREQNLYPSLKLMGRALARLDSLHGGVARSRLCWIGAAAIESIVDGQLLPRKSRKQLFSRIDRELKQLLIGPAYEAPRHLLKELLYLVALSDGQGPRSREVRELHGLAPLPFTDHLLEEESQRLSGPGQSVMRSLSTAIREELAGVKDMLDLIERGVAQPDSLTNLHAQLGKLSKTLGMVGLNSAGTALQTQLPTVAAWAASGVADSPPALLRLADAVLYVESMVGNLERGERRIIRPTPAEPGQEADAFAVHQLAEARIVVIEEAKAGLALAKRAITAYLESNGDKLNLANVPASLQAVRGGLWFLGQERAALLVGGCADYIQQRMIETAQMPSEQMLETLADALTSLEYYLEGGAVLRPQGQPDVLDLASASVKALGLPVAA
# What was measured:
# [1] = system: Pseudomonas aeruginosa model strain PAO1; assay: shake flask culture, bacterial growth (600 nm); settings: concentration less than 100 μM
# Description: 1) Detection of bacterial growth: The growth of bacterial cells is determined by the light absorption value at 600 nm every 2 hours
# (§1) According to this embodiment, the strain used is the Pseudomonas aeruginosa model strain PAO1; the clinical strain is isolated from Shaanxi Provincial People's Hospital and is isolated by the following method: Selective medium such as MacConkey agar (MAC) is inoculated to clinical specimen with normal flora or specimen collected from the environment; plain or blood agar media is inoculated to clinical specimen without normal flora such as blood, cerebrospinal fluid, puncture fluid, and etc. […] Liquefied gelatin can decompose urea, nitrate reduction to produce nitrite and nitrogen is produced, indole negative without producing H2S, arginine dihydrolase positive by using citrate. Based on the above physiological and biochemical characteristics, it is determined that the isolated strain is Pseudomonas aeruginosa.
# In this study, shake flask culture is used to determine the effect of SNP on the growth of PAO1 and PCN biosynthesis. Multiple sets of samples with different concentrations of SNPs and one blank sample are used to study the effect of NO on cell growth and PCN synthesis. The final concentrations of SNPs in each group are 20, 60, 100, 140, 160, and 200 μM respectively. […]
# [2] = system: Pseudomonas aeruginosa model strain PAO1; assay: shake flask culture, PCN detection (520 nm)
# Description: 2) PCN detection: The PCN produced by the bacterial cells in the bacteria solution is extracted with chloroform, concentrated, and then developed with hydrochloric acid, then the level of PCN produced by the bacteria is determined according to the light absorption value at 520 nm.
# as §1
# In this study, shake flask culture is used to determine the effect of SNP on the growth of PAO1 and PCN biosynthesis. Multiple sets of samples with different concentrations of SNPs and one blank sample are used to study the effect of NO on cell growth and PCN synthesis. The final concentrations of SNPs in each group are 20, 60, 100, 140, 160, and 200 μM respectively. Samples are taken every 2 hours during shake flask culture for cell growth detection and PCN detection. The results are shown in A and B in FIG. 1. When the concentration of NO donor SNP is less than 100 μM, it has relatively small effect on the growth of PAO1 strain of Pseudomonas aeruginosa.
# RhlR = RhlR (Pseudomonas aeruginosa, UniProt P54292); assay: SNO modification by IBP enrichment and TMT mass spectrometry
# From the text: (§2) Principle of Implementation: The present invention utilizes the irreversible avidin labeling (IBP) method to affinity enrich the SNO modified protein, analyzes the enriched SNO modified protein by mass spectrometry, and combines literature data to obtain a possible SNO modification key protein for NO inhibition on PCN synthesis.
# (§3) After processing Pseudomonas aeruginosa with NO donor treatment, collect the bacteria and obtain protein of bacteria by cleavage; use irreversible biotinylation procedure (IBP) for blocking, reduction and biotin labelling to produce Thionitrosylation-modified protein, which is then enriched and modified with Streptavidin. Process elution of modified protein by 2.5% SDS. After separation by gel electrophoresis, enzymatic hydrolysis of protein gel into peptides. Labeled modified protein peptides by mass spectrometric TMT reagents. Perform mass spectrometry after desalting. Identify the protein that undergoes SNO modification (nitrosylation) and quantitative changes after NO donor processing.
# (§4) Note: 129 isotope labeled SNP treatment group with nitrosylated modified protein samples, 128 isotope marker control group with nitrosylated modified protein samples, the value of 129/128 of the target protein in the mass spectrometry test results represents: the relative change in the thiosylated modification of this protein in the SNP treatment group when compared with the control group.
# PhzB = assay: as above
# From the text: as §2, §3, §4
# LasR = LasR (Pseudomonas aeruginosa, UniProt P25084); assay: as above
# From the text: as §2, §3, §4
# PilL = assay: as above
# From the text: as §2, §3, §4
# FimL = FimL (Pseudomonas aeruginosa, UniProt Q9I2S3); assay: as above
# From the text: as §2, §3, §4
# PhzA = assay: as above
# From the text: as §2, §3, §4
# PAO1 protein = assay: overall SNO level of protein after NO donor treatment (IBP); format: cell-based, Pseudomonas aeruginosa; settings: after treatment with NO donor
# [3] = system: Pseudomonas aeruginosa model strain PAO1; assay: flat-plate culture, PCN extracted with chloroform, absorption at 520 nm
# Description: According to this embodiment, the strain used is the Pseudomonas aeruginosa model strain PAO1 (which is more common, and is available from various collection centers). This bacteria are obligate aerobic bacteria and is culture under 37° C. in common bacteria culture medium (such as LB medium) for 20˜24 h.
# In this study, the effect of NO on the synthesis of PCN in bacterial cells is investigated through adding multiple sets of flat plate samples of SNPs at different concentrations and one blank flat plate. The final concentrations of SNPs in each group are 20, 40, 60, 80, and 100 μM respectively. After PAO1 is cultured for 22 hours, the PCN produced by the cells in the flat plate is extracted with chloroform, condensed, and then developed with hydrochloric acid, and the level of PCN produced by the cells is determined according to the light absorption value of the coloring solution at 520 nm.
substance,measurement,setting,value
sodium nitroprusside,effect on the growth of PAO1 strain,[1],relatively small effect
same,inhibitory effect on the synthesis of PCN,[2]; 60 μM,most significant inhibitory effect
same,synthesis of PCN with increasing concentrations,[2]; 20˜100 μM,decreases significantly
same,PCN synthesis reduced,[2]; 60 μm SNP treatment,82%
same,"129/128 (relative change in nitrosylated modification, SNP treatment group vs control group)",RhlR,1.574
same,"129/128 (relative change in nitrosylated modification, SNP treatment group vs control group)",PhzB,1.388
same,"129/128 (relative change in nitrosylated modification, SNP treatment group vs control group)",LasR,1.447
same,"129/128 (relative change in nitrosylated modification, SNP treatment group vs control group)",PilL,1.338
same,"129/128 (relative change in nitrosylated modification, SNP treatment group vs control group)",FimL,1.352
same,"129/128 (relative change in nitrosylated modification, SNP treatment group vs control group)",PhzA,1.374
same,overall SNO level of the PAO1 protein,PAO1 protein,increased significantly
same,synthesis of PCN with increasing concentration,"[3]; 20 μM˜60 μM, 22 hours",reduced significantly
same,relatively ideal concentration for PCN reduction,[3]; decrease flattened above this concentration,60 µM

# Some compounds may have been tested in ways that are not shown here.
